Results of unrelated studies side by side (data: NIAID ChemDB).

Shared fields: growth or infection tests; agent: Candida albicans; read-out: Mean MIC

Neighbouring rows are from separate reports.

Clc1ccc(C(c2cccc3ccccc23)n2ccnc2)s1 ; strain or isolate: 23 strains ; result: 3.46 µg/mL
Cc1ccc(-c2ccccc2)n1-c1ccc(Cl)cc1 ; strain or isolate: 20 strains ; result: >200 µg/mL
Clc1ccc(COc2ccc(C(c3ccc4ccccc4c3)n3ccnc3)cc2)c(Cl)c1 ; strain or isolate: 16 strains ; result: ≥256 µg/mL
c1ccc2c(C(c3ccc(-n4cccc4)cc3)n3ccnc3)cccc2c1 ; strain or isolate: 23 strains ; result: 3.9 µg/mL
Clc1ccccc1COc1ccc(C(c2cccc3ccccc23)n2ccnc2)cc1.O=[N+]([O-])O ; strain or isolate: 17 strains ; result: ≥256 µg/mL
O=C(Nc1ccc(Cn2ccnc2)cc1)c1ccc(F)cc1 ; strain or isolate: 27 strains ; result: 142 µg/mL
Cc1c(Cn2ccnc2)cc(-c2ccccc2)n1-c1ccccc1 ; strain or isolate: 20 strains ; result: 81.8 µg/mL
O=C(Nc1cccc(Cn2ccnc2)c1)c1cc([N+](=O)[O-])cc([N+](=O)[O-])c1 ; strain or isolate: 27 strains ; result: 100 µg/mL
Clc1ccc(C(c2ccc3ccccc3c2)n2ccnc2)cc1 ; strain or isolate: 23 strains ; result: 3.9 µg/mL
Clc1ccccc1C(c1nccc2ccccc12)n1ccnc1 ; strain or isolate: 44 strains ; result: 126.4 µg/mL
O=C(Nc1ccccc1Cn1ccnc1)c1ccc([N+](=O)[O-])cc1 ; strain or isolate: 27 strains ; result: 150 µg/mL
COc1cc(C(c2nccc3ccccc23)n2ccnc2)cc(OC)c1OC ; strain or isolate: 44 strains ; result: >256 µg/mL
Cc1c(CN2CCCC2)cc(-c2ccccc2)n1-c1ccc([N+](=O)[O-])cc1 ; strain or isolate: 20 strains ; result: 219 µg/mL
c1ccc(C(c2cccc3ccccc23)n2ccnc2)cc1 ; strain or isolate: 23 strains ; result: 14.8 µg/mL
O=[N+]([O-])c1cccc(C=Nc2cccc(Cn3ccnc3)c2)c1 ; strain or isolate: 27 strains ; result: 82.18 µg/mL
Cc1ccc(C(c2ccc3ccccc3c2)n2ccnc2)cc1 ; strain or isolate: 23 strains ; result: 4.9 µg/mL
Cc1cc(CN2CCN(C)CC2)c(C)n1-c1ccc(Cl)cc1Cl ; strain or isolate: 20 strains ; result: 155 µg/mL
Clc1ccc(C(c2ccc3ccccc3c2)n2ccnc2)s1 ; strain or isolate: 23 strains ; result: 3.84 µg/mL
O=[N+]([O-])c1ccc(C=Nc2cccc(Cn3ccnc3)c2)cc1 ; strain or isolate: 27 strains ; result: 90.97 µg/mL
Clc1cccc(C(c2nccc3ccccc23)n2ccnc2)c1.O=[N+]([O-])O ; strain or isolate: 44 strains ; result: 143.2 µg/mL
Cc1c(CN2CCN(C)CC2)cc(-c2ccccc2)n1-c1ccc([N+](=O)[O-])cc1 ; strain or isolate: 20 strains ; result: 200 µg/mL
Clc1ccc(COc2ccc(C(c3cccc4ccccc34)n3ccnc3)cc2)c(Cl)c1.O=[N+]([O-])O ; strain or isolate: 16 strains ; result: ≥256 µg/mL
Clc1ccc(C(c2cccc3ccccc23)n2ccnc2)cc1 ; strain or isolate: 23 strains ; result: 2.64 µg/mL
Clc1ccc(COc2ccc(C(c3ccc(-c4ccccc4)cc3)n3ccnc3)cc2)c(Cl)c1.O=[N+]([O-])O ; strain or isolate: 16 strains ; result: ≥256 µg/mL
Cc1c(CNc2ccccc2)cc(-c2ccccc2)n1-c1ccccc1 ; strain or isolate: 20 strains ; result: >200 µg/mL
Fc1ccccc1COc1ccc(C(c2cccc3ccccc23)n2ccnc2)cc1.O=[N+]([O-])O ; strain or isolate: 16 strains ; result: ≥256 µg/mL
COc1ccc(C(c2ccc3ccccc3c2)n2ccnc2)cc1 ; strain or isolate: 23 strains ; result: 7.1 µg/mL
Clc1ccc(COc2ccc(C(c3ccc(-c4ccccc4)cc3)n3ccnc3)cc2)cc1.O=[N+]([O-])O ; strain or isolate: 17 strains ; result: ≥256 µg/mL
CC(=O)Nc1ccc(C=Nc2cccc(Cn3ccnc3)c2)cc1 ; strain or isolate: 27 strains ; result: 165 µg/mL

Repeating the final 4 entries:

structure | strain or isolate | result
Fc1ccccc1COc1ccc(C(c2cccc3ccccc23)n2ccnc2)cc1.O=[N+]([O-])O | 16 strains | ≥256 µg/mL
COc1ccc(C(c2ccc3ccccc3c2)n2ccnc2)cc1 | 23 strains | 7.1 µg/mL
Clc1ccc(COc2ccc(C(c3ccc(-c4ccccc4)cc3)n3ccnc3)cc2)cc1.O=[N+]([O-])O | 17 strains | ≥256 µg/mL
CC(=O)Nc1ccc(C=Nc2cccc(Cn3ccnc3)c2)cc1 | 27 strains | 165 µg/mL